Pooled drug test results. Numbers come from NIAID ChemDB, via PubChem.

All rows: whole-cell or culture tests; species: Rhinovirus; endpoint: EC50

Blank or dashed fields: not listed here. Lines come from different laboratories, so protocols vary. ECn is the concentration giving n% inhibition of infection, replication or growth.

| compound | strain | cell line | read by | value |
|---|---|---|---|---|
| Cc1ccc(Cn2cnc3c(N(C)C)nc(C(F)(F)F)nc32)cc1C | TYPE 1B | M-HELA | plaque count | 0.17 µM |
| CSc1nsc(-c2ccc(OCCCCOc3ccc(C#N)cc3)cc2)c1C#N | Serotype 39 (group B) | HELA-OHIO | cytopathic effect | >2 µM |
| Cn1c2ccccc2c2nnc(NCCC(C)(C)O)nc21 | HGP | WI-38 | plaque count | 50 µg/mL |
| CSc1nsc(-c2ccc(OC(C)(C)C)cc2)c1C#N | Serotype 63 (group B) | HELA-OHIO | cytopathic effect | >40 µM |
| Cc1c(-c2ccccc2)n(-c2ccc(F)cc2)c2ccc(C(C)C)cc2c1=O | 61/6669-CV39 | HELA-OHIO | cytopathic effect | 0.3 µg/mL |
| CCOC(=O)/C=C/[C@H](CCC(N)=O)NC(=O)[C@H](Cc1ccccc1)n1ccc(C)c(NC(=O)OCc2ccccc2)c1=O | 14 | HeLa | XTT | >0.033 µM |
| CCn1c2c(c(=O)c3cc(C(C)C)ccc31)Cc1ccccc1-2 | 3 (FEB) | HELA-OHIO | cytopathic effect | 2.9 µg/mL |
| CCO/N=C/c1ccc(OCCCCN2CCN(c3cccnn3)CC2)cc1 | TYPE 1A | KB | cytopathic effect / visual reading | 0.05 µg/mL |
| Cn1c2ccccc2c2nnc(NCCCO)nc21 | HGP | WI-38 | plaque count | 63 µg/mL |
| CC[C@H]1OC(=O)[C@H](C)[C@@H](O[C@H]2C[C@@](C)(OC)[C@@H](O)[C@H](C)O2)[C@H](C)[C@@H](O[C@@H]2O[C@H](C)C[C@H](N(C)C)[C@H]2O)[C@](C)(O)C[C@@H](C)C(=O)[C@H](C)[C@@H](O)[C@]1(C)O | TYPE 14 | Human tracheal epithelial cells | - | <10 µM |
| C=CCO/N=C/c1ccc(OCCCCN2CCN(c3ccc(Cl)nn3)CC2)cc1 | TYPE 1A | KB | cytopathic effect / visual reading | 0.02 µg/mL |
| COc1ccc(Cn2cnc3c(N(C)C)nc(C(F)(F)F)nc32)cc1C | Serotype 18 | M-HELA | plaque count | >8 µM |
| CN=C(c1ccccc1)c1ccc2nc(N)n(S(=O)(=O)C(C)C)c2c1 | TYPE 14 | HeLa | cytopathic effect / XTT | 0.04 µg/mL |
| Cc1nc(-c2cc(C)c(OCCCc3cc(C(F)(F)F)no3)c(C)c2)no1 | Serotype 14 | HeLa | cytopathic effect | 0.305 µg/mL |
| Cn1c2ccccc2c2nnc(NCC(C)(C)CO)nc21 | 2060 | WI-38 | plaque count | 220 µg/mL |
| CO/N=C/c1cc(C)c(OCCCc2cc(C)no2)c(C)c1 | TYPE 1A | KB | cytopathic effect / visual reading | <0.16 µg/mL |
| C[C@@]1(O)[C@H](O)[C@@H](COP(=O)(O)OP(=O)(O)OP(=O)(O)O)O[C@H]1n1ccc2c(N)ncnc21 | TYPE 2 | KB | neutral red | 0.5 µM |
| CO/N=C/c1ccc(OCCCCN2CCN(c3ccc(C)nn3)CC2)cc1 | TYPE 1A | KB | cytopathic effect / visual reading | 0.04 µg/mL |
| CCO/N=C/c1ccc(OCCC2CCN(c3ccc(Cl)nn3)CC2)cc1 | 5146 (ICAM-1 receptor group 24) | KB | neutral red | 0.002 µM |
| CSc1nsc(-c2ccc(OCCCOc3ccc(C#N)cc3)cc2)c1C#N | Serotype 41 (group B) | HELA-OHIO | cytopathic effect | >2 µM |
| Cc1cc(CCCOc2c(C)cc(-c3noc(C(F)(F)F)n3)cc2C)on1 | Serotype 10 | - | - | <0.3 µM |
| CCOC(=O)/C=C/[C@H](C[C@@H]1CCNC1=O)NC(=O)Nc1cccc2ccccc12 | Serotype 14 | H1-HELA | XTT | >10 µM |
| Nc1ncnc2c1ncn2[C@@H]1C[C@H](NC=O)[C@@H](O)[C@H]1O | TYPE 2 | HFF | - | >100 µg/mL |
| CSc1nsc(-c2ccccc2)c1C#N | Serotype 72 (group A) | HELA-OHIO | cytopathic effect | >80 µM |
| CCOC(=O)c1ccc(OCCCOc2ccc(-c3snc(SC)c3C#N)cc2)cc1 | Serotype 63 (group B) | HELA-OHIO | cytopathic effect | >2 µM |
| Cc1ccccc1Cn1cnc2c(N(C)C)nc(C(F)(F)F)nc21 | Serotype 5 | M-HELA | plaque count | >8 µM |
| COCCCNc1nnc2c3ccccc3n(C)c2n1 | 1059 | WI-38 | plaque count | 20 µg/mL |
| CSc1nsc(-c2ccc(OCCCOc3ccc([N+](=O)[O-])cc3)cc2)c1C#N | Serotype 9 (group B) | HELA-OHIO | cytopathic effect | >1 µM |
| CN(C)c1nc(C(F)(F)F)nc2c1ncn2Cc1ccc(F)cc1 | Serotype 21 | M-HELA | plaque count | >8 µM |
| CCOC(=O)c1ccc(OCCOc2ccc(-c3snc(SC)c3C#N)cc2)cc1 | Serotype 2 (group B) | HELA-OHIO | cytopathic effect | >2 µM |
| CN(C)c1nc(C(F)(F)F)nc2c1ncn2Cc1cccc(F)c1 | Serotype 1B | M-HELA | plaque count | 0.03 µM |
| CCOC(=O)/C=C/[C@H](C[C@@H]1CCNC1=O)NC(=O)[C@H](Cc1ccc(F)cc1)NC(=O)[C@@H](NC(=O)c1cc(C)on1)C(C)(C)C | Serotype 16 | H1-HELA | XTT | 0.04 µM |
| CCc1nc(-c2cc(C)c(OCCCc3cc(COC)no3)c(C)c2)no1 | Serotype 89 | HeLa | cytopathic effect | 0.004 µg/mL |
| CCO/N=C/c1ccc(OCCC2CCN(c3ccc(C)nn3)CC2)cc1O | TYPE 14 | MRC-5 | cytopathic effect / visual reading | 0.0072 µg/mL |
| CN(C)c1nnc2c3ccccc3n(C)c2n1 | 33342 | WI-38 | plaque count | 45 µg/mL |
| Cc1cc(CCCOc2c(C)cc(-c3noc(C(F)(F)F)n3)cc2C)on1 | Isolate 33 | OHIO HELA-I | cytopathic effect / visual reading | 0.02 µg/mL |
| CCOC(=O)/C=C/[C@H](C[C@@H]1CCNC1=O)NC(=O)Nc1cc(OC)cc(OC)c1 | Serotype 14 | H1-HELA | - | >10 µM |
| CN(C)c1nc(C(F)(F)F)nc2c1ncn2Cc1ccccc1Cl | Serotype 30 | M-HELA | plaque count | >8 µM |
| CCOC(=O)/C=C/[C@H](C[C@@H]1CCNC1=O)NC(=O)[C@H](Cc1ccccc1)NC(=O)[C@@H](NC(=O)COc1ccccc1)C(C)C | Serotype 14 | H1-HELA | XTT | 0.03 µM |
| CO/N=C/c1ccc(OCCC2CCN(c3ccc(C)nn3)CC2)cc1 | TYPE 1A | KB | cytopathic effect / visual reading | <0.0032 µg/mL |
| CCOC(=O)/C=C/[C@H](CCC(=O)NC)NC(=O)[C@H](Cc1ccccc1)NC(=O)[C@H](CC(C)C)NC(=O)OCc1ccccc1 | Serotype 14 | - | - | 1.6 µM |
| CCCO/N=C/c1ccc(OCCCc2cc(C)no2)cc1 | TYPE 1A | KB | cytopathic effect / visual reading | >1 µg/mL |
| Cc1cc(CCCCCOc2c(Cl)cc(C3=NCCO3)cc2Cl)on1 | TYPE 7 | HeLa | plaque count | 0.017 µg/mL |
| Cn1c2ccccc2c2nnc(N3CCOCC3)nc21 | 33342 | WI-38 | plaque count | 100 µg/mL |
| Cc1c(-c2ccccc2)n(-c2cccc(F)c2)c2ccc(C(C)C)cc2c1=O | 41/56110 | HELA-OHIO | cytopathic effect | 0.034 µg/mL |
| CSc1nsc(-c2ccc(OCCOc3ccc([N+](=O)[O-])cc3)cc2)c1C#N | Serotype 41 (group B) | HELA-OHIO | cytopathic effect | >2 µM |
| Fc1cccc(Cn2cnc3c(Nc4cccc(F)c4)nc(C(F)(F)F)nc32)c1 | Serotype 45 | M-HELA | plaque count | 4.1 µM |
| CCOC(=O)/C=C/[C@H](C[C@@H]1CCNC1=O)NC(=O)COc1ccc(Cl)c(Cl)c1 | Serotype 14 | H1-HELA | XTT | 6.1 µM |
| CCOc1cc(CCCOc2c(C)cc(-c3noc(C)n3)cc2C)on1 | Serotype 6 | HeLa | cytopathic effect | 0.045 µg/mL |
| CSc1nsc(-c2ccc(OCCCCOc3ccc([N+](=O)[O-])cc3)cc2)c1C#N | Serotype 29 (group B) | HELA-OHIO | cytopathic effect | >0.5 µM |
| CC(=O)Nc1ccc(Cn2cnc3c(Nc4cccc(F)c4)nc(C(F)(F)F)nc32)cc1 | Serotype 2 | M-HELA | plaque count | 300 µM |

For reference, 7 entries again:

compound	strain	cell line	read by	value
CO/N=C/c1ccc(OCCCCN2CCN(c3ccc(C)nn3)CC2)cc1	TYPE 1A	KB	cytopathic effect / visual reading	0.04 µg/mL
Cc1ccccc1Cn1cnc2c(N(C)C)nc(C(F)(F)F)nc21	Serotype 5	M-HELA	plaque count	>8 µM
CCOC(=O)/C=C/[C@H](C[C@@H]1CCNC1=O)NC(=O)COc1ccc(Cl)c(Cl)c1	Serotype 14	H1-HELA	XTT	6.1 µM
CCn1c2c(c(=O)c3cc(C(C)C)ccc31)Cc1ccccc1-2	3 (FEB)	HELA-OHIO	cytopathic effect	2.9 µg/mL
Cc1ccc(Cn2cnc3c(N(C)C)nc(C(F)(F)F)nc32)cc1C	TYPE 1B	M-HELA	plaque count	0.17 µM
Cn1c2ccccc2c2nnc(NCCC(C)(C)O)nc21	HGP	WI-38	plaque count	50 µg/mL
Cn1c2ccccc2c2nnc(N3CCOCC3)nc21	33342	WI-38	plaque count	100 µg/mL